{"source": "PubChem BioAssay AID806", "about": "(SRMLSC, 2007)", "tested_on": "virus-infected cells, CPE inhibition, dose response", "experiment": "PubChem AID 806", "note": "The source made the active and inactive calls. The rule behind the calls is not given here."}
{"molecule": "ClCCSc1nnc(-c2cccnc2)o1", "values": [{"measurement": "EC50", "result": "inactive: 47.6 µM"}, {"measurement": "EC90", "setting": "measured here: EC90 CPE inhibition", "result": "> 60", "unit": "µM"}, {"measurement": "CC50", "setting": "measured here: cytotoxicity, cell viability IC50", "result": "> 60", "unit": "µM"}]}
